Measurements taken from patent US7910622B2, “Modulation of bacterial quorum sensing with synthetic ligands” (Wisconsin Alumni Research Foundation, priority 2007, dated 2011).

Amino acid sequences for entries named in this document (tags omitted).
UniProt P25084, whole entry: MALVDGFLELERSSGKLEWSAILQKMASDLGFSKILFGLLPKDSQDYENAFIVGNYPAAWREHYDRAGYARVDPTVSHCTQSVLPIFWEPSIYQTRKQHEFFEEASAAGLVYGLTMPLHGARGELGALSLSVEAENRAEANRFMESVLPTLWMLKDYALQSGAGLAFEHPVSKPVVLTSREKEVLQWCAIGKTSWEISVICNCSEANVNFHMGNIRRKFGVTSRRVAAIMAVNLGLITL

Target: LasR (Pseudomonas aeruginosa, UniProt P25084)
Details: 5 μM synthetic ligand against 7.5 nM OdDHL; E. coli DH5α (pJN105L pSC11); normalized to OdDHL

For `CCCCCC(=O)CC(=O)N[C@H]1CCOC1=O` [compound 1, N-(3-oxo-octanoyl)-L-homoserine lactone, reference compound], the “E. coli-LasR Inhibition [%]” value was 50%.
